Seven molecules from paper PMC5080452 (Bioorganic & Medicinal Chemistry, 2016) can be followed below.

Where “and” joins values, the source holds several entries; their conditions need not be identical. Equal values may be shown once. Read-outs that look alike come from different tables or passages of the source.

This test has as its system bloodstream form of T. brucei (strain 221). The settings on record: for SITb (selectivity index): ratio of cytotoxic (L6 cells) to anti-T. brucei IC50 values; for IC50: read-out: T. brucei IC50; for IC50 / IC90: bloodstream form; for IC90: read-out: T. brucei IC90.
[1] abbreviates: pH 7.4, mean of triplicate ± SEM.

`CC1=C[C@@H]2Cc3nc4cc(Cl)ccc4c(NCCCCCCC#N)c3[C@H](C1)C2` [4c]: the “SITb (selectivity index)” value was 13.5. In addition, under setting [1], the IC50 amounted to 860 ± 50 nM and the IC90 was 1220 ± 30 nM.

As to `CC1=C[C@@H]2Cc3nc4cc(Cl)ccc4c(NCCCCCCCC#N)c3[C@H](C1)C2` [4d], the “SITb (selectivity index)” value is listed as 12.3. For the same molecule, under setting [1], the IC50 was 620 ± 20 nM and the concentration for an effect of 90% (IC90) came to 850 ± 10 nM.

With `CC1=C[C@@H]2Cc3nc4cc(Cl)ccc4c(NCCCCCCCCC#N)c3[C@H](C1)C2` [4e], the “SITb (selectivity index)” value was 25 and 25.1; the IC50 is 320 nM; the IC90 was found to be 420 nM. In addition, under “SI L6 cells / T. brucei”, the “selectivity index relative to huprine Y (increased)” value was 2 fold and the “selectivity index relative to nifurtimox (increased)” value is listed as 3.5 fold. Where the note is “T. brucei IC50 values”, the “antitrypanosomal potency relative to huprine Y (more potent)” value was found to be 2 fold and the “antitrypanosomal potency relative to nifurtimox (more potent)” value is recorded as 14 fold. For the same molecule, the “antitrypanosomal potency relative to huprine Y (more potent)” value (in terms of the T. brucei IC90 values) came to 7 fold. Besides, under setting [1], the 50% inhibitory concentration (IC50) is 300 nM and 320 nM; the IC90 was determined as 420 ± 10 nM.

For the molecule `CC1=C[C@@H]2Cc3nc4cc(Cl)ccc4c(NCCCCCCCCCCC#N)c3[C@H](C1)C2` [4g], under setting [1], the half-maximal inhibitory concentration (IC50) stood at 1370 ± 60 nM and the 90% effect concentration (IC90) came out at 1910 ± 20 nM.

For the molecule `CC1=C[C@@H]2Cc3nc4cc(Cl)ccc4c(NCCCCCN)c3[C@H](C1)C2` [5a], the “SITb (selectivity index)” value is listed as 4.2. Moreover, under setting [1], the IC50 is 920 ± 80 nM and the IC90 was found to be 2920 ± 430 nM.

For the molecule `CC1=C[C@@H]2Cc3nc4cc(Cl)ccc4c(NCCCCCCN)c3[C@H](C1)C2` [5b], the “SITb (selectivity index)” value is given as 2.4. Under setting [1], the IC50 came out at 2030 ± 100 nM and the IC90 was 3090 ± 210 nM.

`CC1CS(=O)(=O)CCN1/N=C/c1ccc([N+](=O)[O-])o1` (stereo not shown) [Nifurtimox, reference compound]: the “SITb (selectivity index)” value stood at 7.3.

What is called IC50 is the concentration that gives 50% inhibition. What is called IC90 is the point of the concentration-response curve where the effect stands at 90%.
